{
  "source": "patent US9168275B2",
  "about": "(priority 2000, dated 2015)",
  "origin": "cited, not measured here",
  "system": "bacteria",
  "conditions": "cited from earlier work",
  "data": [
    {"substance": "ramoplanin", "values": [
      {"measurement": "Cross-resistance with vancomycin", "value": "not cross-resistant"},
      {"measurement": "Resistance engendered in bacteria", "value": "very little to no resistance"}
    ]}
  ]
}
